These results are taken from article PMC6950094, “Variants of Escherichia coli Subtilase Cytotoxin Subunits Show Differences in Complex Formation In Vitro” (Toxins, 2019).

Series [1] addresses SubB2-2-His (His-tagged B-subunit of subtilase cytotoxin variant SubAB2-2) (Escherichia coli (STEC)). Nature of the series: SEC. Background: In gel filtration, larger molecules generally elute earlier.
Series [2] addresses SubA1-His (His-tagged A-subunit of subtilase cytotoxin variant SubAB1) (Escherichia coli (STEC), UniProt Q6EZC2 22-347). Nature of the series: ITC.
The series “SEC” deals with the molecule itself. Nature of the series: SEC.

The stoichiometry N is a count of units in the complex or per binding partner. “SubB2-2-His (His-tagged B-subunit of subtilase cytotoxin variant SubAB2-2) (natural protein)” had a stoichiometry N in series [1] of 5.

B1: SubB1-His (His-tagged B-subunit of subtilase cytotoxin variant SubAB1) (natural protein)
chain: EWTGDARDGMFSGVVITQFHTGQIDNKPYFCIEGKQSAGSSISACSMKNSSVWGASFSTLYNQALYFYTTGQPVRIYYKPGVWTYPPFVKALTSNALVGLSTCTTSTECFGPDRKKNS
What is called Kd is a measure of binding affinity in units of concentration. The low end stands for a tighter complex, the high end for a looser complex. On to B1, for which, in series [2], binding was characterised by a dissociation constant (Kd) of 3.9 µM, the dH turned out to be 1.6 kcal/mol and the “stoichiometry N” value came out at 4.9. Also, the “stoichiometry N” value in the series “SEC” amounted to 5.
